System: Escherichia coli O157:H7 Shiga toxin

Question: Which IC50 does the source give for `C[C@H](NC(=O)[C@H](CCCNC(=N)N)NC(=O)CCCCCCCN)C(=O)N[C@@H](CCCNC(=N)N)C(=O)N[C@@H](CCCNC(=N)N)C(=O)N[C@@H](CCCNC(=N)N)C(=O)N[C@@H](CCCCN)C(=O)N[C@@H](CCCCN)C(=O)N[C@@H](CCCNC(=N)N)C(=O)N[C@H](C(N)=O)[C@@H](C)O` [Aoc-RxxT] here?
Answer: > 1000 µM

From patent US20150141324A1 (priority 2011, published 2015)
